Assay results published in paper PMC12326976 (Antimicrobial Agents and Chemotherapy, 2025).

Key:
H1N1 virus [1] = conditions: passages in the presence of zanamivir; cited from earlier work
H1N1 virus [2] = experiment: Drug-resistance testing by serial passage of H1N1; conditions: 15 passages (P15) with 4H30 2.5, 5.0 and 10.0 μg/mL for every five passages; Fig. 3d

CC(=O)N[C@H]1[C@H]([C@H](O)[C@H](O)CO)OC(C(=O)O)=C[C@@H]1N=C(N)N [zanamivir, reference compound]
drug-resistant H1N1 virus after passaging in presence of drug (H1N1 virus [1]): zanamivir-resistant H1N1 virus could be generated after four passages

CC[C@H](C)[C@H](NC(=O)[C@H](C)NC(=O)CN)C(=O)N[C@@H](CS)C(=O)N[C@@H](Cc1c[nH]cn1)C(=O)N1CCC[C@H]1C(=O)N[C@H](C(=O)N[C@@H](Cc1ccccc1)C(=O)N[C@@H](CS)C(=O)N1CCC[C@H]1C(=O)N[C@@H](CCCNC(=N)N)C(=O)N[C@@H](CCCNC(=N)N)C(=O)N[C@@H](Cc1ccc(O)cc1)C(=O)N[C@@H](CCCCN)C(=O)N[C@@H](CCC(N)=O)C(=O)N[C@H](C(=O)NCC(=O)N[C@H](C(=O)N[C@@H](CS)C(=O)NCC(=O)N[C@@H](CC(C)C)C(=O)N1CCC[C@H]1C(=O)NCC(=O)N[C@H](C(=O)N[C@@H](CCCCN)C(=O)N[C@@H](CS)C(=O)N[C@@H](CS)C(=O)N[C@@H](CCCCN)C(=O)N[C@@H](CCCCN)C(=O)N1CCC[C@H]1C(=O)NCCCC[C@H](NC(=O)[C@@H]1CCCN1C(=O)[C@H](CCCCN)NC(=O)[C@H](CCCCN)NC(=O)[C@H](CS)NC(=O)[C@H](CS)NC(=O)[C@H](CCCCN)NC(=O)[C@@H](NC(=O)CNC(=O)[C@@H]1CCCN1C(=O)[C@H](CC(C)C)NC(=O)CNC(=O)[C@H](CS)NC(=O)[C@@H](NC(=O)CNC(=O)[C@@H](NC(=O)[C@H](CCC(N)=O)NC(=O)[C@H](CCCCN)NC(=O)[C@H](Cc1ccc(O)cc1)NC(=O)[C@H](CCCNC(=N)N)NC(=O)[C@H](CCCNC(=N)N)NC(=O)[C@@H]1CCCN1C(=O)[C@H](CS)NC(=O)[C@H](Cc1ccccc1)NC(=O)[C@@H](NC(=O)[C@@H]1CCCN1C(=O)[C@H](Cc1c[nH]cn1)NC(=O)[C@H](CS)NC(=O)[C@@H](NC(=O)[C@H](C)NC(=O)CN)[C@@H](C)CC)C(C)C)[C@@H](C)CC)[C@@H](C)O)[C@@H](C)O)C(=O)NCCCC[C@H](NC(=O)[C@H](CCCCNC(=O)[C@@H]1CCCN1C(=O)[C@H](CCCCN)NC(=O)[C@H](CCCCN)NC(=O)[C@H](CS)NC(=O)[C@H](CS)NC(=O)[C@H](CCCCN)NC(=O)[C@@H](NC(=O)CNC(=O)[C@@H]1CCCN1C(=O)[C@H](CC(C)C)NC(=O)CNC(=O)[C@H](CS)NC(=O)[C@@H](NC(=O)CNC(=O)[C@@H](NC(=O)[C@H](CCC(N)=O)NC(=O)[C@H](CCCCN)NC(=O)[C@H](Cc1ccc(O)cc1)NC(=O)[C@H](CCCNC(=N)N)NC(=O)[C@H](CCCNC(=N)N)NC(=O)[C@@H]1CCCN1C(=O)[C@H](CS)NC(=O)[C@H](Cc1ccccc1)NC(=O)[C@@H](NC(=O)[C@@H]1CCCN1C(=O)[C@H](Cc1c[nH]cn1)NC(=O)[C@H](CS)NC(=O)[C@@H](NC(=O)[C@H](C)NC(=O)CN)[C@@H](C)CC)C(C)C)[C@@H](C)CC)[C@@H](C)O)[C@@H](C)O)NC(=O)[C@@H]1CCCN1C(=O)[C@H](CCCCN)NC(=O)[C@H](CCCCN)NC(=O)[C@H](CS)NC(=O)[C@H](CS)NC(=O)[C@H](CCCCN)NC(=O)[C@@H](NC(=O)CNC(=O)[C@@H]1CCCN1C(=O)[C@H](CC(C)C)NC(=O)CNC(=O)[C@H](CS)NC(=O)[C@@H](NC(=O)CNC(=O)[C@@H](NC(=O)[C@H](CCC(N)=O)NC(=O)[C@H](CCCCN)NC(=O)[C@H](Cc1ccc(O)cc1)NC(=O)[C@H](CCCNC(=N)N)NC(=O)[C@H](CCCNC(=N)N)NC(=O)[C@@H]1CCCN1C(=O)[C@H](CS)NC(=O)[C@H](Cc1ccccc1)NC(=O)[C@@H](NC(=O)[C@@H]1CCCN1C(=O)[C@H](Cc1c[nH]cn1)NC(=O)[C@H](CS)NC(=O)[C@@H](NC(=O)[C@H](C)NC(=O)CN)[C@@H](C)CC)C(C)C)[C@@H](C)CC)[C@@H](C)O)[C@@H](C)O)C(=O)O)[C@@H](C)O)[C@@H](C)O)[C@@H](C)CC)C(C)C [4H30]
drug-resistant H1N1 virus after passaging in presence of drug (H1N1 virus [2]): no drug-resistant H1N1 virus was detected

Like-named read-outs stand apart in the source and are kept apart here.
